PubChem BioAssay AID624099 | ICCB-Longwood | 2012
Shown is one part, drawn at random, of about 21,000 reagents. 497 of all reagents (2.4%) were called active. 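Higher z means weaker E2 silencing; only reporter increases were scored, and knock-downs that hurt cell survival may mask genuine repressor factors.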

Purpose: 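Human genes that papillomavirus E2 requires to repress the HPV18 LCR promoter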 (primary screen)
Cell system: human C33A cervical carcinoma cells (HPV-negative) stably expressing BPV1 E2 and an HPV18 LCR luciferase reporter
Reagent: siRNA pool against human genes, 40 nM
Timing: 72 h
Read-out: 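HPV18 LCR reporter light per well, converted to plate-wise z-scores that exclude control wells, and averaged over triplicate plates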
Direction: mean z-score and z-score: higher = stronger reporter signal, weaker E2 silencing
Active means: 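Hit if mean z-score reaches 2 and two or more of three replicate z-scores also reach 2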

LOC389365 (retired record): mean z-score = 0.27; z-score, replicate A = 0.18; z-score, replicate B = 0.13; z-score, replicate C = 0.5; Call = inactive
ERP44: mean z-score = -0.52; z-score, replicate A = -0.43; z-score, replicate B = -0.67; z-score, replicate C = -0.46; Call = inactive
STAU1: mean z-score = 0.04; z-score, replicate A = 0.14; z-score, replicate B = -0.08; z-score, replicate C = 0.08; Call = inactive
PCGF5: mean z-score = -0.51; z-score, replicate A = -0.57; z-score, replicate B = -0.48; z-score, replicate C = -0.49; Call = inactive
LRRC73: mean z-score = 0.29; z-score, replicate A = 0.06; z-score, replicate B = 0.34; z-score, replicate C = 0.47; Call = inactive
DUSP15: mean z-score = 1.23; z-score, replicate A = 1.37; z-score, replicate B = 1.05; z-score, replicate C = 1.26; Call = inactive
PREP: mean z-score = 0.74; z-score, replicate A = 1.09; z-score, replicate B = 0.48; z-score, replicate C = 0.65; Call = inactive
ZNF598: mean z-score = -1.37; z-score, replicate A = -1.53; z-score, replicate B = -1.16; z-score, replicate C = -1.42; Call = inactive
APOC3: mean z-score = 0.84; z-score, replicate A = 0.66; z-score, replicate B = 0.78; z-score, replicate C = 1.08; Call = inactive

Ordered by “mean z-score” (highest first): 2 of the entries above.
LOC389365 (retired record): mean z-score = 0.27; z-score, replicate A = 0.18; z-score, replicate B = 0.13; z-score, replicate C = 0.5; Call = inactive
ERP44: mean z-score = -0.52; z-score, replicate A = -0.43; z-score, replicate B = -0.67; z-score, replicate C = -0.46; Call = inactive

Continued.
GRK3: mean z-score = -1.4; z-score, replicate A = -1.38; z-score, replicate B = -1.79; z-score, replicate C = -1.04; Call = inactive
RNF6: mean z-score = -0.77; z-score, replicate A = -0.77; z-score, replicate B = -0.98; z-score, replicate C = -0.57; Call = inactive
DHX35: mean z-score = -1.03; z-score, replicate A = -1.1; z-score, replicate B = -0.89; z-score, replicate C = -1.1; Call = inactive
ABCB11: mean z-score = 0.17; z-score, replicate A = 0.56; z-score, replicate B = 0.06; z-score, replicate C = -0.11; Call = inactive
KARS1: mean z-score = -0.88; z-score, replicate A = -0.86; z-score, replicate B = -1.08; z-score, replicate C = -0.69; Call = inactive
